# Test results taken from paper PMC4214760, “Host Cofactors and Pharmacologic Ligands Share an Essential Interface in HIV-1 Capsid That Is Lost upon Disassembly” (PLoS Pathogens, 2014).
# pKd: −log10 of the molar value. Several values for one entry are separate records, joined by “and”; a condition that tells them apart may be missing. Equal values may be shown once.
# Tests used:
# HIV-1 CA hexamer = target: T1, HIV-1 CA hexamer (Human immunodeficiency virus type 1 group M subtype B, UniProt P12493, A146C/E177C/M317A/W316A); details: ITC, −DTT; 50 mM TRIS pH 7.4, 150 mM NaCl; hexamer in syringe titrated into ligand in cell; read-out: Kd, binding to HIV-1 hexamer
# T1 construct: produced by assembly of recombinant CA containing four amino acid substitutions; made in house
# monomeric HIV-1 CA = target: T2, monomeric HIV-1 CA (Human immunodeficiency virus type 1 group M subtype B, UniProt P12493, A146C/E177C/M317A/W316A); experiment: ITC binding to monomeric CA (hexamer monomerized with 1 mM DTT); details: +DTT (1 mM), approximate affinities for weak interactions, NB = no binding detectable
# T2 construct: produced by assembly of recombinant CA containing four amino acid substitutions; made in house
substance,measurement,setting,value
PF74,pKd,HIV-1 CA hexamer,6.92 and ~7.00
same,pKd,monomeric HIV-1 CA,5.57
